# Reference: article PMC4667793 (Journal of medicinal chemistry, 2015)
# By UniProt entry, the sequences of proteins in these tests, tags left out. Where a name states a change or a piece, a line headed by the entry shows the natural chain unless it says otherwise.
# UniProt I6YFP0: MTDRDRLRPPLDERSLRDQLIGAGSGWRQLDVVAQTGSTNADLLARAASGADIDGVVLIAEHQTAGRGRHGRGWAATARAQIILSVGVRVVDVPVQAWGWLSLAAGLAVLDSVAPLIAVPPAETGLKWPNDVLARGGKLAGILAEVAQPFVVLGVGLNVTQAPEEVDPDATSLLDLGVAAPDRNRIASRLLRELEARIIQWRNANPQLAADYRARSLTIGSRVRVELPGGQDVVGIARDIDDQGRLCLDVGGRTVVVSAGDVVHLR
# Key:
# [1] = target: T1, MtBPL (Mycobacterium tuberculosis, UniProt I6YFP0); settings: from K of displacement ITC, 298 K
# [2] = target: T1, MtBPL
compound,measurement,setting,value
CCN(CC)CC.Nc1ncnc2c1ncn2COCCNS(=O)(=O)NC(=O)CCCC[C@@H]1SC[C@@H]2NC(=O)N[C@@H]21 [Compound 90],ΔG,[1],-13.0 ± 0.1 kcal/mol
same,-TΔS,[2]; calculated from ΔG (displacement) and ΔH (direct titration),12.6 ± 0.7 kcal/mol
same,ΔH,"[2]; direct titration ITC, 25 °C",-25.5 ± 0.7 kcal/mol
